Pooled drug test results. Numbers come from NIAID ChemDB, via PubChem.

Common to all: growth or infection tests; agent: Candida albicans

Blank or dashed fields: not listed here.

smiles,endpoint,strain or isolate,read by,value
C=C1C(=O)ON(C)C1C(C)CCC,MIC,,,37.5 µg/mL
CCN1CCC(n2cc(-c3nc(-c4ccccc4)n[nH]3)nn2)CC1,MIC,,agar,45 µg/mL
C[C@@H](c1ncncc1F)[C@](O)(Cn1cncn1)c1ccc(F)cc1F,MIC,Isolate 98-17,,0.12 µg/mL
CCCCCOc1ccc(-c2cc(-c3ccc(C(=O)N[C@H]4C[C@@H](O)[C@@H](O)NC(=O)[C@@H]5[C@@H](O)[C@@H](C)CN5C(=O)[C@H]([C@H](O)CC(N)=O)NC(=O)[C@H]([C@H](O)[C@@H](O)c5ccc(O)c(OS(=O)(=O)O)c5)NC(=O)[C@@H]5C[C@@H](O)CN5C(=O)[C@H]([C@@H](C)O)NC4=O)cc3)no2)cc1,MIC,OY-31.5,,0.0312 µg/mL
Cc1ccc(C2CC(c3cccs3)=NN2c2nc(-c3ccccc3)cs2)cc1,MIC,Clinical isolates,,500 µg/mL
c1ccc(-c2ccc(C(c3ccccc3)n3ccnc3)cc2)cc1,MIC90,16 strains,,16 µg/mL
c1ccc(-c2c(C(c3ccccc3)n3cncn3)cnn2-c2ccccc2)cc1,MIC,,,>200 µM
O/N=C(\c1ccccc1)c1oc2ccccc2c1Cn1ccnc1,MIC,Clinical isolate,,12.5 µg/mL
c1ccc(C(c2cnn(-c3ccccc3)c2)n2cncn2)cc1,MIC,,,>200 µM
Nc1[nH]c(=O)ncc1F,MIC50,50 isolates,,0.16 µg/mL
Cc1ccc(N2NOC(=O)C2S(=O)(=O)Nc2nc3ccc([N+](=O)[O-])cc3s2)cc1,MIC,MTCC 227,broth dilution,100 µg/mL
c1ccc(-c2c[nH]cc2C(c2cccc3ccccc23)n2ccnc2)cc1,Mean MIC,33 strains,,8.97 µg/mL
CCS(=O)(=O)C(F)(F)C(O)(Cn1cncn1)c1ccc(F)cc1F,MIC,IFM 40009,,0.063 µg/mL
CS(=O)(=O)N1CCC(n2cc(-c3nc(-c4ccc(Cl)cc4)n[nH]3)nn2)CC1,MIC,,agar,20 µg/mL
Clc1ccc(CC2=NCCS2)cc1,MIC,,,36 µg/mL
O=C1C(Nc2ccc(Cl)cc2)=C(S(=O)c2ccc(O)cc2)C(=O)c2ccccc21,MIC50,,,0.53–1 µg/mL
c1ccc(-c2ccc(C(c3c[nH]cc3-c3ccccc3)n3ccnc3)cc2)cc1,MIC90,33 strains,,128 µg/mL
O/N=C(\c1ccc(Cl)cc1)c1oc2ccccc2c1Cn1cncn1,MIC,NRRL Y-27077,,25 µg/mL
O=[N+]([O-])/C(Br)=C\c1ccc(Br)o1,MIC50,31 strains,,1.2 µg/mL
CC(=O)N1CCN(c2ccc(OC[C@H]3CO[C@](Cn4ccnc4)(c4ccc(Cl)cc4Cl)O3)cc2)CC1,MIC,ATCC 90028,broth dilution,125 µg/mL
O=S(c1ccccc1)c1c(SBr)c(O)c2ccccc2c1O,MIC50,,,2–3 µg/mL
CCCCCCCCCOc1ccc(N2CCN(c3ccc(C(=O)N[C@H]4CCCNC(=O)[C@@H]5C[C@H](N)CN5C(=O)[C@H]([C@@H](C)O)NC(=O)[C@H](CCc5ccc(O)cc5)NC(=O)[C@@H]5C[C@@H](O)CN5C(=O)[C@H]([C@@H](C)O)NC4=O)cc3)CC2)cc1,MIC,ATCC 10231,,0.2 µg/mL
C[C@H]1[C@H](O)[C@@H](C)/C=C/C=C/C=C/C=C/C=C/C=C/C=C/[C@H](O[C@@H]2O[C@H](C)[C@@H](O)[C@H](N)[C@@H]2O)C[C@@H]2O[C@](O)(C[C@@H](O)C[C@@H](O)CC[C@H](O)[C@@H](O)C[C@@H](O)CC(=O)O[C@H]1C)C[C@H](O)[C@H]2C(=O)O,MIC,ATCC 10231,broth dilution,0.078–1.25 µg/mL
CC(=O)N1CCN(c2ccc(OC[C@H]3CO[C@](Cn4ccnc4)(c4ccc(Cl)cc4Cl)O3)cc2)CC1,MIC90,50 isolates,,0.2 µg/mL
C=CCc1ccc(O)c(OC)c1,MIC90,177,turbidity,480 µg/mL
CCCCOc1ccc(-c2csc(NS(=O)(=O)C3C(=O)ONN3c3ccc(C)cc3)n2)cc1,MIC,MTCC 227,broth dilution,200 µg/mL
CC(C)(C)c1c(C(c2ccccc2)n2ccnc2)cnn1-c1ccccc1,MIC,,,>200 µM
CC(C)=CC1C[C@](C)(O)C2C3CCC4[C@@]5(C)CC[C@H](O[C@@H]6OC[C@H](O)[C@H](OC7O[C@H](CO)[C@@H](O)[C@H](O)[C@H]7O)[C@H]6O[C@@H]6O[C@@H](CO)[C@H](O)[C@H]6O)C(C)(C)C5CC[C@@]4(C)[C@@]34CO[C@@]2(C4)O1,MIC,ATCC 3153,,120 µg/mL
C[C@H]1[C@H](O)[C@@H](C)/C=C/C=C/C=C/C=C/C=C/C=C/C=C/[C@H](O[C@@H]2O[C@H](C)[C@@H](O)[C@H](N)[C@@H]2O)C[C@@H]2O[C@](O)(C[C@@H](O)C[C@@H](O)CC[C@H](O)[C@@H](O)C[C@@H](O)CC(=O)O[C@H]1C)C[C@H](O)[C@H]2C(=O)O,MFC,ATCC 10231,broth dilution / absorbance,78.1 µg/mL
Cc1ccc(N2NOC(=O)C2S(=O)(=O)Nc2ccc(-n3c(-c4ccccc4[N+](=O)[O-])nc4ccccc4c3=O)cc2)cc1,MIC,MTCC 227,broth dilution,500 µg/mL
CCc1c(C(c2ccccc2)n2ccnc2)cnn1-c1ccccc1,MIC,,,>200 µM
c1csc(CC2=NCCS2)c1,MIC,,,12 µg/mL
Cc1c(/C(=N/O)c2ccc(Cl)cc2)oc2ccc(Cl)cc12,MIC,Clinical isolate,,12.5 µg/mL
O=C1C(Nc2ccc(Br)cc2)=C(S(=O)c2ccc(O)cc2)C(=O)c2ccccc21,MIC50,,,>3 µg/mL
CCCCCOc1ccc(-c2ccc(-c3ccc(C(=O)N[C@H]4CCCNC(=O)[C@@H]5C[C@H](N)CN5C(=O)[C@H](CC)NC(=O)[C@H](CCc5ccc(O)cc5)NC(=O)[C@@H]5C[C@@H](O)CN5C(=O)[C@H]([C@@H](C)O)NC4=O)cc3)cc2)cc1,MIC,ATCC 38247,,0.39 µg/mL
CCCc1c(C(c2ccccc2)n2ccnc2)cnn1-c1ccccc1,MIC,,,>200 µM
CC(C)=CCc1c(O)c(C)c2c(c1O)C(=O)C[C@@H](c1ccc(O)cc1)O2,MIC,,,100 µg/mL
O=S(=O)(O)c1ccc2cc(O)ccc2c1,MIC,,agar diffusion,300 µg/mL
O/N=C(\c1ccc(Cl)cc1)c1oc2ccc(Cl)cc2c1Cn1cncn1,MIC,NRRL Y-27077,,12.5 µg/mL
Cc1ccc(-c2csc(N3N=C(c4cccs4)CC3c3ccc(C)cc3)n2)cc1,MIC,Clinical isolates,,62.5 µg/mL
Cc1ccc(N2NOC(=O)C2S(=O)(=O)Nc2nc3c([N+](=O)[O-])cccc3s2)cc1,MIC,MTCC 227,broth dilution,500 µg/mL
C(=C/c1ccco1)/C1=NCCS1,MIC,,,58 µg/mL
COc1cc([C@H]2COc3c(ccc(O)c3OC)C2)c(OC)c(O)c1OC,MIC,,,>200 µg/mL
CCC(C)n1ncn(-c2ccc(N3CCN(c4ccc(OC[C@H]5CO[C@](Cn6cncn6)(c6ccc(Cl)cc6Cl)O5)cc4)CC3)cc2)c1=O,MIC90,50 isolates,,0.39 µg/mL
COc1ccc(C=Nc2ccc(S(=O)(=O)Nn3c(Cc4ccccc4Nc4c(Cl)cccc4Cl)nc4ccccc4c3=O)cc2)cc1,MIC,,broth dilution,500 µg/mL
O/N=C(\c1ccccc1)c1oc2ccc(Cl)cc2c1Cn1cncn1,MIC,NRRL Y-27077,,25 µg/mL
Nc1cc(S(=O)(=O)O)cc2cc(S(=O)(=O)O)cc(O)c12,MIC,,agar diffusion,50 µg/mL
Cc1ccc2oc(C(=O)c3ccccc3)c(C)c2c1,MIC,NRRL Y-27077,,50 µg/mL
O=S(=O)(O)c1ccc2cc(O)c(S(=O)(=O)O)cc2c1,MIC,,agar diffusion,50 µg/mL
Cn1cc(-c2ccccc2)c(C(c2cccc3ccccc23)n2ccnc2)c1,MIC50,33 strains,,16 µg/mL
Cc1nc(C)c(-c2n[nH]c(=S)n2-c2ccc3ccccc3c2)s1,MIC,ATCC 14053,,12.5 µg/mL
Clc1ccc(C(Cn2ccnc2)OCc2csc3c(Cl)cccc23)c(Cl)c1,MIC90,16 strains,,2 µg/mL
CCCCNC(=S)NNC(=O)c1sc(C)nc1C,MIC,ATCC 14053,,12.5 µg/mL
c1ccc2cc(CC3=NCCS3)ccc2c1,MIC,,,7 µg/mL
Cc1nnsc1-c1n[nH]c(=S)n1-c1ccc2ccccc2c1,MIC,ATCC 14053,,25 µg/mL
O=C(c1ccc(Cl)cc1)N1CCC(n2cc(-c3nc(-c4ccccc4)n[nH]3)nn2)CC1,MIC,,agar,120 µg/mL
Cc1ccc(N2NOC(=O)C2S(=O)(=O)Nc2ccc(-n3c(-c4ccccc4Cl)nc4ccccc4c3=O)cc2)cc1,MIC,MTCC 227,broth dilution,1000 µg/mL
CCCCCOc1ccc(-c2ccc(-c3ccc(CN[C@H]4CCCNC(=O)[C@@H]5C[C@H](N)CN5C(=O)[C@H]([C@@H](C)O)NC(=O)[C@H](CCc5ccc(O)cc5)NC(=O)[C@@H]5C[C@@H](O)CN5C(=O)[C@H]([C@@H](C)O)NC4=O)cc3)cc2)cc1,MIC,ATCC 10231,,0.39 µg/mL
Cn1ncc(C(c2ccccc2)n2ccnc2)c1-c1ccccc1,MIC,,,>200 µM
Clc1ccc(/C=C\C2=NCCS2)cc1,MIC,,,3 µg/mL
CCCCCOc1ccc(-c2ccc(-c3ccc(C(=O)N[C@H]4CCCNC(=O)[C@@H]5[C@H](N)CCN5C(=O)[C@H]([C@@H](C)O)NC(=O)[C@H](CCc5ccc(O)cc5)NC(=O)[C@@H]5C[C@@H](O)CN5C(=O)[C@H]([C@@H](C)O)NC4=O)cc3)cc2)cc1,MIC,ATCC 10231,,0.2 µg/mL
CS(=O)(=O)N1CCC(n2cc(-c3nc(-c4ccc([N+](=O)[O-])cc4)n[nH]3)nn2)CC1,MIC,,agar,30 µg/mL
O/N=C(\c1ccc(Cl)cc1)c1oc2ccc(Cl)cc2c1Cn1ccnc1,MIC,Clinical isolate,,25 µg/mL
Cc1nnsc1C(=O)NNC(=S)NC12CC3CC(CC(C3)C1)C2,MIC,ATCC 14053,,12.5 µg/mL
c1ccc(-c2csc(N3N=C(c4cccs4)CC3c3ccccc3)n2)cc1,MIC,Clinical isolates,,62.5 µg/mL
Nc1cccc2c(S(=O)(=O)O)cccc12,MIC,,agar diffusion,100 µg/mL
CSC1NN=C(c2snnc2C)N1C1C2CC3CC(C2)CC1C3,MIC,ATCC 14053,,25 µg/mL
O=[N+]([O-])c1ccc(C2CC(c3cccs3)=NN2c2nc(-c3ccc(Cl)cc3)cs2)cc1,MIC,Clinical isolates,,125 µg/mL
Cc1c(C(c2ccccc2)n2cncn2)cnn1-c1ccccc1,MIC,,,>200 µM
Cc1nc(C)c(C(=O)NNC(=S)NC23CC4CC(CC(C4)C2)C3)s1,MIC,ATCC 14053,,12.5 µg/mL
Cc1c(C(c2ccccc2)n2ccnc2)cnn1-c1ccccc1,MIC,,,>200 µM
CCN1CCC(n2cc(-c3nc(-c4ccc(OC)cc4)n[nH]3)nn2)CC1,MIC,,agar,60 µg/mL
Cn1cc(-c2ccccc2)c(C(c2cccs2)n2ccnc2)c1,Mean MIC,33 strains,,>256 µg/mL
Cc1nnsc1C(=O)NNC(=S)Nc1ccc2ccccc2c1,MIC,ATCC 14053,,25 µg/mL
Nc1ccc2c(O)cc(S(=O)(=O)O)cc2c1,MIC,,agar diffusion,100 µg/mL
Cn1cc(-c2ccccc2)c(C(c2ccc(-c3ccccc3)cc2)n2ccnc2)c1,MIC50,33 strains,,128 µg/mL
O=S(c1ccccc1)c1c(S)c(O)c2ccccc2c1O,MIC50,,,>3 µg/mL
Nc1ccc(S(=O)(=O)O)c2cc(S(=O)(=O)O)cc(O)c12,MIC,,agar diffusion,50 µg/mL
Cc1c(C(=O)c2ccccc2)oc2ccccc12,MIC,NRRL Y-27077,,25 µg/mL

For reference, 8 entries again:

smiles,endpoint,strain or isolate,read by,value
O/N=C(\c1ccc(Cl)cc1)c1oc2ccccc2c1Cn1cncn1,MIC,NRRL Y-27077,,25 µg/mL
CCN1CCC(n2cc(-c3nc(-c4ccccc4)n[nH]3)nn2)CC1,MIC,,agar,45 µg/mL
Cc1nc(C)c(C(=O)NNC(=S)NC23CC4CC(CC(C4)C2)C3)s1,MIC,ATCC 14053,,12.5 µg/mL
CCCCCCCCCOc1ccc(N2CCN(c3ccc(C(=O)N[C@H]4CCCNC(=O)[C@@H]5C[C@H](N)CN5C(=O)[C@H]([C@@H](C)O)NC(=O)[C@H](CCc5ccc(O)cc5)NC(=O)[C@@H]5C[C@@H](O)CN5C(=O)[C@H]([C@@H](C)O)NC4=O)cc3)CC2)cc1,MIC,ATCC 10231,,0.2 µg/mL
Cn1cc(-c2ccccc2)c(C(c2cccc3ccccc23)n2ccnc2)c1,MIC50,33 strains,,16 µg/mL
O=C(c1ccc(Cl)cc1)N1CCC(n2cc(-c3nc(-c4ccccc4)n[nH]3)nn2)CC1,MIC,,agar,120 µg/mL
O=C1C(Nc2ccc(Cl)cc2)=C(S(=O)c2ccc(O)cc2)C(=O)c2ccccc21,MIC50,,,0.53–1 µg/mL
C[C@H]1[C@H](O)[C@@H](C)/C=C/C=C/C=C/C=C/C=C/C=C/C=C/[C@H](O[C@@H]2O[C@H](C)[C@@H](O)[C@H](N)[C@@H]2O)C[C@@H]2O[C@](O)(C[C@@H](O)C[C@@H](O)CC[C@H](O)[C@@H](O)C[C@@H](O)CC(=O)O[C@H]1C)C[C@H](O)[C@H]2C(=O)O,MFC,ATCC 10231,broth dilution / absorbance,78.1 µg/mL

MIC50, MIC90 and the like: level of inhibition, or share of isolates inhibited. Two numbers with a dash give a range or band. Neighbouring rows are from separate reports.